This is an account of results in patent publication EP3529371B1.

Test in all cases: cell-based or functional assay
Experiment [1] has as its target H6tHAtev1V(2-94)LS (Photinus pyralis).
The target of experiment [2] is H6tHAtev1S(146-206)LS (Photinus pyralis).
Experiment [3] concerns the target H6tHAtev1V(2-76)LS M46I (Photinus pyralis) (UniProt P63026).
Experiment [4] addresses H6tHAtev1V(2-76)LS K59R (Photinus pyralis) (UniProt P63026).

“LC/T 1-438 fused to a C-terminal 6xHN-tag” came in with an EC50 of substrate cleavage, endopeptidase assay, PBS pH 7.4, 1 h 37°C in experiment [1] of 83 nM. In experiment [2], “BoNT/A1 (recombinant, activated full-length) (from UniProt P0DPI1 2-1296)” showed an EC50 of cleavage of generic substrate with reporter luc, JDZ-buffer, 1 h 37°C of 0.03 nM and an EC50 of substrate cleavage, endopeptidase assay, JDZ-buffer, 1 h 37°C of 0.03 nM.

In the case of “LC/F1 1-428 fused to a C-terminal 6xHN-tag”, the EC50 of substrate cleavage, endopeptidase assay, PBS pH 7.4, 1 h 37°C in experiment [1] was 2.3 nM. In experiment [1], “BoNT/B1 (recombinant, activated full-length) (from UniProt B1INP5 2-1291)” yielded an EC50 of cleavage of generic substrate with reporter luc, JDZ-buffer, 1 h 37°C of 0.07 nM and an EC50 of substrate cleavage, endopeptidase assay, JDZ-buffer, 1 h 37°C of 0.07 nM. Take “BoNT/C (recombinant, activated full-length) (from UniProt P18640 2-1291)”: in experiment [2], the EC50 of cleavage of generic substrate with reporter luc, JDZ-buffer, 1 h 37°C amounted to 10 nM and the EC50 of substrate cleavage, endopeptidase assay, JDZ-buffer, 1 h 37°C was found to be 10 nM.

In experiment [1], “BoNT/D (recombinant, activated full-length) (from UniProt P19321 2-1276)” had an EC50 of cleavage of generic substrate with reporter luc, JDZ-buffer, 1 h 37°C of 0.2 nM and an EC50 of substrate cleavage, endopeptidase assay, JDZ-buffer, 1 h 37°C of 0.2 nM.

On to “BoNT/D (recombinant, activated full-length) (from UniProt P19321 2-1276) (enzyme)”, for which, in experiment [3], the EC50 of substrate cleavage, endopeptidase assay, JDZ-buffer, 1 h 37°C is greater than 1000 nM and the fold increase of EC50 relative to generic H6tHAtev1V(2-94)LS is greater than 5000 fold. Besides, the EC50 of substrate cleavage, endopeptidase assay, JDZ-buffer, 1 h 37°C in experiment [4] was found to be 0.6 nM. Take “BoNT/F1 (recombinant, activated full-length) (enzyme)”: the results for the EC50 of substrate cleavage, endopeptidase assay, JDZ-buffer, 1 h 37°C in experiment [3] and in experiment [4] were 0.2 nM and 6 nM, respectively. In experiment [1], “LC/D 1-436 fused to a C-terminal 6xHN-tag” displayed an EC50 of substrate cleavage, endopeptidase assay, PBS pH 7.4, 1 h 37°C of 0.6 nM. In experiment [1], “LC/G 1-435 fused to a C-terminal 6xHN-tag” had an EC50 of substrate cleavage, endopeptidase assay, PBS pH 7.4, 1 h 37°C greater than 10 µM. With “BoNT/E1 (recombinant, activated full-length) (from UniProt Q00496 2-1251)”, in experiment [2], the EC50 of cleavage of generic substrate with reporter luc, JDZ-buffer, 1 h 37°C was 0.2 nM and the EC50 of substrate cleavage, endopeptidase assay, JDZ-buffer, 1 h 37°C was 0.2 nM. In experiment [1], “LC/B1 1-436 fused to a C-terminal 6xHN-tag” yielded an EC50 of substrate cleavage, endopeptidase assay, PBS pH 7.4, 1 h 37°C of 80 nM.
